# Measured values published in the supplement of paper PMC12637763.
# This is one part of the list. Env chains of viruses from a treatment-interruption trial, translated from the printed DNA. IC50 / IC80 of two broadly neutralizing antibodies; lower = more sensitive virus; >50 µg/ml means not reached and <0.001 µg/ml is below the lowest dose. No active / inactive call.
# B1: HIV-1 Env, rebound clone, placebo arm (protein)
# chain: MRVKGIRKSCQRLWRWGIMLLGMLMISSATEKLWVTVYYGVPVWKEANTTLFCASDAKAYDTEAHNVWATHACVPTDPNPQELDLENVTENFNMWKNGMVEQMHEDVISLWDQSLKPCVKLTPLCVTLNCTNEVNLRVNSSNSNSSINSSSSISNSSIEEKGEIKNCSFNITTSIRDKVTKEYALFYRLDIVSIKDDKSDNSNNTNTRYRLINCNTSVITQACPKVSFEPIPIHYCAPAGFAILKCKDREFNGSGTCQNVSTVQCTHGIKPVVSTQLLLNGSLAEGEVVIRSENFSDNAKTIIVQLSRPVVINCTRPNNNTRKSIHIAPGRTFYATGDIIGDIRQAHCNISKRDWNKTLKEVKGKLEKQYNKTILFNQSSGGDPEIVFHTFNCAGEFFYCNTTNLFNNNITINNGTNGTNTNENITLPCRIKQIINLWQEVGKAMYAPPIKGQIRCSSNITGLLLTRDGGLNENRTNDTVRPGGGDMRDNWRSELYRYKVVEIEPLGIAPTKAKRRVVQREKRAVGAIGAMFLGLLGAAGSTMGAASITLTVQARLVLSGIVQQQNNLLRAIEAQQHLLQLTVWGIKQLQARVLAVERYLKDQQLLGIWGCSGKLICTTSVPWNSSWSNRSLEYIWNNMTWMQWEREIDNYTGKIYTLIEEAQHKQEENELELLKLDEWSNLWNWFDISKWLWYIKIFIMIVGGLIGLRIVFAVISIVNRVRKGYSPLSFQTHFPAPRGPDRPGGTEEEGGDRDRDRSTRLVDGFLALVWDDLRSLILFLYHHLRDLLLIITRIVGLLGRRGWEILKYWWNLLQYWSRELKLSAISLYNATAVAVAEGTDRVIEVVQRIFRGVLHVPRRIRQGLERILV
# B2: HIV-1 Env, rebound clone, placebo arm (protein)
# chain: MRVKGIRKSCQRLWRWGIMLLGMLMISSATEKLWVTVYYGVPVWKEANTTLFCASDAKAYDTEAHNVWATHACVPTDPNPQELDLENVTENFNMWKNGMVEQMHEDVISLWDQSLKPCVKLTPLCVTLNCTNDVNLRVNSSNSNSSINSSSSISNSSIEEKGEIKNCSFNITTSIRDKVTKEYALFYRLDIVSIKDDKSDNSNNTNTRYRLINCNTSVITQACPKVSFEPIPIHYCAPAGFAILKCKDREFNGSGTCQNVSTVQCTHGIKPVVSTQLLLNGSLAEGEVVIRSENFSDNAKTIIVQLSRPVVINCTRPNNNTRKSIHIAPGRTFYATGDIIGDIRQAHCNISKRDWNKTLKEVKGKLEKQYNKTILFNQSSGGDPEIVFHTFNCAGEFFYCNTTNLFNNNITINNGTNGTNTNENITLPCRIKQIINLWREVGKAMYAPPIKGQIRCSSNITGLLLTRDGGLNENRTNDTVRPGGGDMRDNWRSELYRYKVVEIEPLGIAPTKAKRRVVQREKRAVGAIGAMFLGLLGAAGSTMGAASITLTVQARLVLSGIVQQQNNLLRAIEAQQHLLQLTVWGIKQLQARVLAVERYLKDQQLLGIWGCSGKLICTTSVPWNSSWSNRSLEYIWNNMTWMQWEREIDNYTGKIYTLIEEAQHKQEENELELLKLDEWSNLWNWFDISKWLWYIKIFIMIVGGLIGLRIVFAVISIVNRVRKGYSPLSFQTHFPAPRGPDRPGGTEEEGGDRDRDRSTRLVDGFLALVWDDLRSLILFLYHHLRDLLLIITRIVGLLGRRGWEILKYWWNLLQYWSRELKLSAISLYNATAVAVAEGTDRVIEVVQRIFRGVLHVPRRIRQGLERILV
# B3: HIV-1 Env, rebound clone, placebo arm (protein)
# chain: MRVKGIRKSCQRLWRWGIMLLGMLMISSATEKLWVTVYYGVPVWKEANTTLFCASDAKAYDTEAHNVWATHACVPTDPNPQELDLENVTENFNMWKNGMVEQMHEDVISLWDQSLKPCVKLTPLCVTLNCTNDVNLRVNSSNSNSSINSSSSISNSSIEEKGEIKNCSFNIATSIRDKVTKEYALFYRLDIVSIKDDKSDNSNNTNTRYRLINCNTSVITQACPKVSFEPIPIHYCAPAGFAILKCKDREFNGSGTCQNVSTVQCTHGIKPVVSTQLLLNGSLAEGEVVIRSENFSDNAKTIIVQLSRPVVINCTRPNNNTRKSIHIAPGRTFYATGDIIGDIRQAHCNISKRDWNKTLKEVKGKLEKQYNKTILFNQSSGGDPEIVFHTFNCAGEFFYCNTTNLFNNNITINNGTNGTNTNENITLPCRIKQIINLWQEVGKAMYAPPIKGQIRCSSNITGLLLTRDGGLNENRTNDTVRPGGGDMRDNWRSELYRYKVVEIEPLGIAPTKAKRRVVQREKRAVGAIGAMFLGLLGAAGSTMGAASITLTVQARLVLSGIVQQQNNLLRAIEAQQHLLQLTVWGIKQLQARVLAVERYLKDQQLLGIWGCSGKLICTTSVPWNSSWSNRSLEYIWNNMTWMQWEREIDNYTGKIYTLIEEAQHKQEENELELLKLDEWSNLWNWFDISKWLWYIKIFIMIVGGLIGLRIVFAVISIVNRVRKGYSPLSFQTHFPAPRGPDRPGGTEEEGGDRDRDRSTRLVDGFLALVWDDLRSLILFLYHHLRDLLLIITRIVGLLGRRGWEILKYWWNLLQYWSRELKLSAISLYNATAVAVAEGTDRVIEVVQRIFRGVLHVPRRIRQGLERILV
# B4: HIV-1 Env, rebound clone, placebo arm (protein)
# chain: MRVKGIRKSCQRLWRWGIMLLGMLMISSATEKLWVTVYYGVPVWKEANTTLFCASDAKAYDTEAHNVWATHACVPTDPNPQELDLENVTENFNMWKNGMVEQMHEDVISLWDQSLKPCVKLTPLCVTLNCTNDVNLRVNSSNSNSSINSSSSISNSSIEEKGEIKNCSFNITTSIRDKVTKEYALFYRLDIVSIKDDKSDNSNNTNTRYRLINCNTSVITQACPKVSFEPIPIHYCAPAGFAILKCKDREFNGSGTCQNVSTVQCTHGIKPVVSTQLLLNGSLAEGEVVIRSENFSDNAKTIIVQLSRPVVINCTRPNNNTRKSIHIAPGRTFYATGDIIGDIRQAHCNISKRDWNKTLKEVKGKLEKQYNKTILFNQSSGGDPEIVFHTFNCAGEFFYCNTTNLFNNNITINNGTNGTNTNENITLPCRIKQIINLWQEVGKAMYAPPIKGQIRCSSNITGLLLTRDGGLNENRTNDTVRPGGGDMRDNWRSELYRYKVVKIEPLGIAPTKAKRRVVQREKRAVGAIGAMFLGLLGAAGSTMGAASITLTVQARLVLSGIVQQQNNLLRAIEAQQHLLQLTVWGIKQLQARVLAVERYLKDQQLLGIWGCSGKLICTTSVPWNSSWSNRSLEYIWNNMTWMQWEREIDNYTGKIYTLIEEAQHKQEENELELLKLDEWSNLWNWFDISKWLWYIKIFIMIVGGLIGLRIVFAVISIVNRVRKGYSPLSFQTHFPAPRGPDRPGGTEEEGGDRDRDRSTRLVDGFLALVWDDLRSLILFLYHHLRDLLLIITRIVGLLGRRGWEILKYWWNLLQYWSRELKLSAISLYNATAVAVAEGTDRVIEVVQRIFRGVLHVPRRIRQGLERILV
# B5: HIV-1 Env, rebound clone, placebo arm (protein)
# chain: MRVKGIRKSCQRLWRWGIMLLGMLMISSATEKLWVTVYYGVPVWKEANTTLFCASDAKAYDTEAHNVWATHACVPTDPNPQELDLENVTENFNMWKNGMVEQMHEDVISLWDQSLKPCVKLTPLCVTLNCTNDVNLRVNSSNSNSSINSSSSISNSSIEEKGEIKNCSFNITTSIRDKVTKEYALFYRLDIVSIKDDKSDNSNNTNTRYRLINCNTSVITQACPKVSFEPIPIHYCAPAGFAILKCKDREFNGSGTCQNVSTVQCTHGIKPVVSTQLLLNGSLAEGEVVIRSENFSDNAKTIIVQLSRPVVINCTRPNNNTRKSIHIAPGRTFYATGDIIGDIRQAHCNISKRDWNKTLKEVKGKLEKQYNKTILYNQSSGGDPEIVFHTFNCAGEFFYCNTTNLFNNNITINNGTNGTNTNENITLPCRIKQIINLWQEVGKAMYAPPIKGQIRCSSNITGLLLTRDGGLNENRTNDTVRPGGGDMRDNWRSELYRYKVVEIEPLGIAPTKAKRRVVQREKRAVGAIGAMFLGLLGAAGSTMGAASITLTVQARLVLSGIVQQQNNLLRAIEAQQHLLQLTVWGIKQLQARVLAVERYLKDQQLLGIWGCSGKLICTTSVPWNSSWSNRSLEYIWNNMTWMQWEREIDNYTGKIYTLIEEAQHKQEENELELLKLDEWSNLWNWFDISKWLWYIKIFIMIVGGLIGLRIVFAVISIVNRVRKGYSPLSFQTHFPAPRGPDRPGGTEEEGGDRDRDRSTRLVDGFLALVWDDLRSLILFLYHHLRDLLLIITRIVGLLGRRGWEILKYWSRELKLSAISLYNATAVAVAEGTDRVIEVVQRIFRGVLHVPRRIRQGLERILV
# B6: HIV-1 Env, rebound clone, placebo arm (protein)
# chain: MRVKGIRKSCQRLWRWGIMLLGMLMISSATEKLWVTVYYGVPVWKEANTTLFCASDAKAYDTEAHNVWATHACVPTDPNPQELDLENVTENFNMWKNGMVEQMHEDVISLWDQSLKPCVKLTPLCVTLNCTNDVNLRVNSSNSNSSINSSSSISNSSIEEKGEIKNCSFNITTSIRDKVTKEYALFYRLDIVSIKDDKSDNSNNTNTRYRLINCNTSVITQACPKVSFEPIPIHYCAPAGFAILKCKDREFNGSGTCQNVSTVQCTHGIKPVVSTQLLLNGSLAEGEVVIRSENFSDNAKTIIVQLSRPVVINCTRPNNNTRKSIHIAPGRTFYATGDIIGDIRQAHCNISKRDWNKTLKEVKGKLEKQYNKTILFNQSSGGDPEIVFHTFNCAGEFFYCNTTNLFNNNITINNGTNGTNTNENITLPCRIKQIINLWQEVGKAMYAPPIKGQIRCSSNITGLLLTRDGGLNENRTNDTVRPGGGDMRDNWRSELYRYKVVEIEPLGIAPTKAKRRVVQREKKAVGAIGAMFLGLLGAAGSTMGAASITLTVQARLVLSGIVQQQNNLLRAIEAQQHLLQLTVWGIKQLQARVLAVERYLKDQQLLGIWGCSGKLICTTSVPWNSSWSNRSLEYIWNNMTWMQWEREIDNYTGKIYTLIEEAQHKQEENELELLKLDEWSNLWNWFDISKWLWYIKIFIMIVGGLIGLRIVFAVISIVNRVRKGYSPLSFQTHFPAPRGPDRPGGTEEEGGDRDRDRSTRLVDGFLALVWDDLRSLILFLYHHLRDLLLIITRIVGLLGRRGWEILKYWWNLLQYWSRELKLSAISLYNATAVAVAEGTDRVIEVVQRIFRGVLHVPRRIRQGLERILV
# Biological target: antibody 10-1074
# Test: neutralization IC50; higher = virus less sensitive to the antibody
# Protocol: (§1)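 Pseudovirus bearing the Env chain mixed with antibody, from 50 µg/ml in fivefold dilutions, on TZM-bl reporter cells, in duplicate.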
row,Binder,neutralization IC50
1,B1,0.01 µg/mL
2,B2,0.007 µg/mL
3,B3,0.015 µg/mL
4,B4,0.016 µg/mL
5,B5,0.013 µg/mL
6,B6,0.018 µg/mL

# Biological target: antibody 3BNC117
# Test: as above
# Protocol: as §1
row,Binder,neutralization IC50
1,B1,0.07 µg/mL
2,B2,0.164 µg/mL
3,B3,0.133 µg/mL
4,B4,0.076 µg/mL
5,B5,0.074 µg/mL
6,B6,0.099 µg/mL

# Biological target: antibody 10-1074
# Test: neutralization IC80; higher = virus less sensitive to the antibody
# Protocol: as §1
row,Binder,neutralization IC80
1,B1,0.035 µg/mL
2,B2,0.017 µg/mL
3,B3,0.045 µg/mL
4,B4,0.036 µg/mL
5,B5,0.05 µg/mL
6,B6,0.047 µg/mL

# Biological target: antibody 3BNC117
# Test: as above
# Protocol: as §1
row,Binder,neutralization IC80
1,B1,0.259 µg/mL
2,B2,0.819 µg/mL
3,B3,0.454 µg/mL
4,B4,0.23 µg/mL
5,B5,0.347 µg/mL
6,B6,0.281 µg/mL
